According to the supplement of paper PMC9931576:
Human monoclonal antibodies against the spike receptor-binding domain (heavy:light variable regions). IC50 against pseudoviruses bearing the spike of naturally observed variants; lower = stronger; >10 µg/ml means not reached at the top dose. No active / inactive call. The stated detection limit is 0.0005 µg/ml; values near or below 0.001 µg/ml lie at the floor of the assay.

Tests used:
Test in all cases: pseudovirus neutralization IC50; higher = weaker neutralization
[1] = target: SARS-CoV-2 Omicron BA.1 spike pseudovirus
Protocol: (§1)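 Single-round VSV luciferase pseudovirus mixed with antibody dilutions for 1 h and put on Huh-7 cells for about a day; IC50 from the dose curve.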

[2] = target: SARS-CoV-2 Omicron BA.2 spike pseudovirus
Protocol: as §1

[3] = target: SARS-CoV-2 Omicron BA.2.75 spike pseudovirus
Protocol: as §1

[4] = target: SARS-CoV-2 Omicron BA.5 spike pseudovirus
Protocol: as §1

[5] = target: SARS-CoV-2 Omicron BQ.1.1 spike pseudovirus
Protocol: as §1

[6] = target: SARS-CoV-2 Omicron XBB spike pseudovirus
Protocol: as §1

[7] = target: SARS-CoV-2 early D614G spike pseudovirus
Protocol: as §1

B1: BD55-6595 (protein)
chain 1: EVQLAQSGAEVKKPGESLRISCKGSEYSSTNYWISWVRQMPGKGPEWIGRIYPGDSYTTYNPSFQGHVTISADKSISTAYLQWSSLKASDTAMYYCASQQVERMGYYYMDVWGEGTTVTVSS
chain 2: DIQMTQSPSSLSASVGDRVTITCRASQTISNYLNWYQQKPGKAPKLLIYEASTLQSGVPSRFGGSGSGTDFTLTISSLQPEDFATYYCQQSYTTPTWTFGQGTKVEIK
pseudovirus neutralization IC50 [1]: > 10 µg/mL
pseudovirus neutralization IC50 [2]: > 10 µg/mL
pseudovirus neutralization IC50 [3]: > 10 µg/mL
pseudovirus neutralization IC50 [4]: > 10 µg/mL
pseudovirus neutralization IC50 [5]: > 10 µg/mL
pseudovirus neutralization IC50 [6]: > 10 µg/mL
pseudovirus neutralization IC50 [7]: > 10 µg/mL

B2: BD55-6557 (protein)
chain 1: QVQLQQWGAGLLKPSETLSLTCAVYDGSFSGYFWSWIRQPPGKGLEWIGEIFHTGSTNYRPSLKSRLAVSMDTSKNHFSLKLTSLTAADTAVYYCARRPYCSGRYGCAFDMWGQGTMVSVSS
chain 2: DIVMTQSPDSLAVSLGERATIRCKSSQSVLYDANSKNYLAWYQHKPGQPPQLLLYWASTRESGVPDRFSGSGSGTDFTLTISSLQAEDVAVYYCQQYYNTPTFGQGTRLEIK
pseudovirus neutralization IC50 [1]: > 10 µg/mL
pseudovirus neutralization IC50 [2]: > 10 µg/mL
pseudovirus neutralization IC50 [3]: > 10 µg/mL
pseudovirus neutralization IC50 [4]: > 10 µg/mL
pseudovirus neutralization IC50 [5]: > 10 µg/mL
pseudovirus neutralization IC50 [6]: > 10 µg/mL
pseudovirus neutralization IC50 [7]: > 10 µg/mL

B3: BD55-1270 (protein)
chain 1: EVQLVESGGGLIQPGGSLRLSCAASGFTFSRFDMHWVRQTTGQGLEWVSAIGTAGDTYYSDSVKGRFTISRENGKNSFFLQMKSVRAGDTAVYYCARGDLTGITWYFDLWGRGTLVTVSS
chain 2: DIQMTQSPSSLSASVGERVTITCRASQTIGKYLHWYQLKPRKAPNLLIYDATSLQSGVPSRFSGSGSGTEFTLTITSLQPEDLATYYCQQSYTMPPVTFGGGTKVEI
pseudovirus neutralization IC50 [1]: > 10 µg/mL
pseudovirus neutralization IC50 [2]: > 10 µg/mL
pseudovirus neutralization IC50 [3]: > 10 µg/mL
pseudovirus neutralization IC50 [4]: > 10 µg/mL
pseudovirus neutralization IC50 [5]: > 10 µg/mL
pseudovirus neutralization IC50 [6]: > 10 µg/mL
pseudovirus neutralization IC50 [7]: > 10 µg/mL

B4: BD55-6567 (protein)
chain 1: QVTLKESGPVLVKPTETLTLTCTVSGFSLSDVRMGVSWIRQPPGKALEWLAHIFSNDEKSYSTSLKSRLTISKDTSKSQVVLTMTNMDPVDTATYYCARTAPSLYYSDSSGPYYYYYGMDVWGQGTTVTVSS
chain 2: DIQVTQSPSSLSASVGDRVTITCRASQSISNYFNWYQQKPGKAPTLLIYAASTLQSGVPSRFSGSGSGTHFTLTISSLQPEDFASYYCQQTYGNTLTFGQGTKLEIK
pseudovirus neutralization IC50 [1]: > 10 µg/mL
pseudovirus neutralization IC50 [2]: > 10 µg/mL
pseudovirus neutralization IC50 [3]: > 10 µg/mL
pseudovirus neutralization IC50 [4]: > 10 µg/mL
pseudovirus neutralization IC50 [5]: > 10 µg/mL
pseudovirus neutralization IC50 [6]: > 10 µg/mL
pseudovirus neutralization IC50 [7]: > 10 µg/mL

B5: BD55-6598 (protein)
chain 1: QVQLVQSGAEVKKPGASVKVSCKASGYTFSNYGISWVRQAPGQGLEWMGWISGYSGKTDYAQKFQGRVTVTTDTSPSTAYMELRSLRPDDTAVYYCVRDRYSYLYSDYEPFDSWGQGTLVTVSS
chain 2: DVVMTQSPLSLPVTLGQPASISCRSSQSLVYSDGNIFLSWFHQRPGQSPRRLIYKVSNRDSGVPDRFSGSGSGTDFTLKISRVEAEDVGVYYCMQGTHWPRTFGQGTRMEIK
pseudovirus neutralization IC50 [1]: 3.6 µg/mL
pseudovirus neutralization IC50 [2]: 8.91 µg/mL
pseudovirus neutralization IC50 [3]: 3.11 µg/mL
pseudovirus neutralization IC50 [4]: 7.01 µg/mL
pseudovirus neutralization IC50 [5]: 3.02 µg/mL
pseudovirus neutralization IC50 [6]: > 10 µg/mL
pseudovirus neutralization IC50 [7]: 3.78 µg/mL

B6: BD55-6565 (protein)
chain 1: QEQLVESGGGVVQPGRSLRLSCAASGFSFNDYAMHWVRQAPGRGLEWVAVISHDGSHKYDVDSVKGRFIVSRDNSKNTLYLQMNSVRVEDTAVYYCARVNGARGYGSGSYYTFYFYGMDVWGQGTTVTVS
chain 2: DIQMTQSPSSLSASVGDRVTITCRASQDINSYLNWYQVKPGKAPKLLIYGASDLQSGVPSRFSGSGSGTDFTLTISSLRPEDFATYYCQQTYSTPPFAFGPGTKVDIK
pseudovirus neutralization IC50 [1]: > 10 µg/mL
pseudovirus neutralization IC50 [2]: > 10 µg/mL
pseudovirus neutralization IC50 [3]: > 10 µg/mL
pseudovirus neutralization IC50 [4]: > 10 µg/mL
pseudovirus neutralization IC50 [5]: > 10 µg/mL
pseudovirus neutralization IC50 [6]: > 10 µg/mL
pseudovirus neutralization IC50 [7]: > 10 µg/mL
